Results of unrelated studies side by side (data: NIAID ChemDB).

All rows: toxicity to cultured cells; cell line: WI-38; measure: CC50

CCn: concentration that lowers growth or viability of the cells by n%. Two numbers with a dash give a range or band. Blank or dashed fields: not listed here. Neighbouring rows are from separate reports.

structure | read by | value
Nc1ccn(C[C@@H](CO)OCP(=O)(O)O)c(=O)n1 | - | 10–50 µg/mL
c1ccc2[nH]c(-c3ccc(N4CCN(c5ccc(-c6nc7ccccc7[nH]6)cc5)CC4)cc3)nc2c1 | - | >71 µg/mL
Cc1nc(Cc2ccccc2)c2[nH]c(=S)[nH]c(=O)n12 | - | 100 µg/mL
NC(=NC1CCC1)c1ccc(N2CCN(c3ccc(C(N)=NC4CCC4)cc3)CC2)cc1 | - | >5.8 µg/mL
COc1ccc2nc3n[nH]c(C)c3c(SCc3ccco3)c2c1 | - | >100 µg/mL
Cc1nc(CC(O)CO)c2nc[nH]c(=O)n12 | - | >400 µg/mL
CCCCCN=C(N)c1ccc(N2CCN(c3ccc(C(N)=NCCCCC)cc3)CC2)cc1 | - | >0.14 µg/mL
Nc1nc(N)c2ncn(C[C@@H]3CC[C@H](P(=O)(O)O)O3)c2n1 | - | 100 µg/mL
CCN=C(N)c1ccc(N2CCN(c3ccc(C(N)=NCC)cc3)CC2)cc1 | - | >54.2 µg/mL
Nc1nc2c(ncn2COC(CO)CO)c(=O)[nH]1 | - | 12.5 µg/mL
C=CCc1nc(C)n2c(=O)[nH]c(NC(C)=O)nc12 | - | 400 µg/mL
O=c1[nH]c(=O)n(C2C[C@H](CO)[C@H]2CO)cc1C=CI | - | >800 µM
O=C1CC(CO)=NN1c1ccccc1 | - | 388 µM
CCCCCCN=C(N)c1ccc(N2CCN(c3ccc(C(N)=NCCCCCC)cc3)CC2)cc1 | - | >0.409 µg/mL
CC[C@H](C)C(=O)c1c(O)cc(O)cc1OC/C=C(\C)CCC=C(C)C | sulforhodamine | 8.9 µM